Results deposited as PubChem BioAssay AID624099 (ICCB-Longwood, 2012).

- Test: 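Human genes that papillomavirus E2 requires to repress the HPV18 LCR promoter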 (primary screen)
- Cells: human C33A cervical carcinoma cells (HPV-negative) stably expressing BPV1 E2 and an HPV18 LCR luciferase reporter
- Reagents: siRNA pool against human genes, 40 nM
- Duration: 72 h
- Measured: 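Per-well luciferase luminescence, z-scored on each plate against the plate mean and SD with control wells left out, then averaged across three replicate plates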
- Scale: mean z-score and z-score: higher = stronger reporter signal, weaker E2 silencing
- Active means: 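Hit if mean z-score reaches 2 and two or more of three replicate z-scores also reach 2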
Shown is one part, drawn at random, of about 21,000 deposited reagents. 497 of them (2.4%) were called active. 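Higher z means weaker E2 silencing; only reporter increases were scored, and knock-downs that hurt cell survival may mask genuine repressor factors.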

gene,mean z-score,"z-score, replicate A","z-score, replicate B","z-score, replicate C",activity call
LTB (lymphotoxin beta),0.4,0.38,0.58,0.23,inactive
POLR2J (RNA polymerase II subunit J),-0.42,-0.29,-0.17,-0.79,inactive
TBC1D20 (TBC1 domain family member 20),-1.35,-1.23,-1.47,-1.33,inactive
SKAP2 (src kinase associated phosphoprotein 2),-0.4,-0.5,-0.31,-0.37,inactive
WASF3 (WASP family member 3),1.77,1.65,1.65,2.01,inactive
TRIM51G (tripartite motif-containing 51G),-0.32,-0.44,-0.15,-0.36,inactive
PCLO (piccolo presynaptic cytomatrix protein),0.4,-0.45,2.3,-0.66,inactive
UGP2 (UDP-glucose pyrophosphorylase 2),1.5,1.6,1.16,1.74,inactive
TBC1D5 (TBC1 domain family member 5),0.38,0.2,0.37,0.58,inactive
PFN2 (profilin 2),0.52,0.53,0.4,0.63,inactive
MFGE8 (milk fat globule EGF and factor V/VIII domain containing),0.29,0.14,0.34,0.39,inactive
SMURF1 (SMAD specific E3 ubiquitin protein ligase 1),0.5,0.45,0.41,0.65,inactive
IFIH1 (interferon induced with helicase C domain 1),1.65,1.66,1.77,1.52,inactive
SHC4 (SHC adaptor protein 4),0.91,0.63,0.62,1.48,inactive
TNFAIP6 (TNF alpha induced protein 6),1.9,1.94,2.2,1.57,inactive
OGDHL (oxoglutarate dehydrogenase L),-0.95,-0.66,-1.01,-1.18,inactive
STK35 (serine/threonine kinase 35),1.25,1.27,1.18,1.31,inactive
NXPE2 (neurexophilin and PC-esterase domain family member 2),0.54,0.67,0.81,0.14,inactive
GLT8D1 (glycosyltransferase 8 domain containing 1),-0.3,-0.41,-0.36,-0.15,inactive
MKRN1 (makorin ring finger protein 1),0.57,0.42,0.58,0.7,inactive
LOC387631 (retired record),0.5,0.38,0.37,0.76,inactive
PLS1 (plastin 1),0.03,0.12,0.2,-0.23,inactive

Quoted from the listing (6 entries):
gene,mean z-score,"z-score, replicate A","z-score, replicate B","z-score, replicate C",activity call
TBC1D5 (TBC1 domain family member 5),0.38,0.2,0.37,0.58,inactive
PFN2 (profilin 2),0.52,0.53,0.4,0.63,inactive
MFGE8 (milk fat globule EGF and factor V/VIII domain containing),0.29,0.14,0.34,0.39,inactive
SMURF1 (SMAD specific E3 ubiquitin protein ligase 1),0.5,0.45,0.41,0.65,inactive
IFIH1 (interferon induced with helicase C domain 1),1.65,1.66,1.77,1.52,inactive
SHC4 (SHC adaptor protein 4),0.91,0.63,0.62,1.48,inactive

More results follow.
gene,mean z-score,"z-score, replicate A","z-score, replicate B","z-score, replicate C",activity call
TNFRSF1B (TNF receptor superfamily member 1B),-0.98,-0.97,-0.93,-1.03,inactive
MPP2 (MAGUK p55 scaffold protein 2),0.43,0.25,0.28,0.77,inactive
EXOC6B (exocyst complex component 6B),2.09,2.16,1.98,2.12,active
ADGRG2 (adhesion G protein-coupled receptor G2),-0.11,-0.36,0.02,0.01,inactive
LOC389390 (retired record),0.11,-0.02,0.18,0.16,inactive
SH3RF2 (SH3 domain containing ring finger 2),2.71,2.96,2.57,2.61,active
STRIP2 (striatin interacting protein 2),-1.36,-1.39,-1.3,-1.38,inactive
PMFBP1 (polyamine modulated factor 1 binding protein 1),-0.23,0.08,-0.33,-0.45,inactive
"PCDHAC1 (protocadherin alpha subfamily C, 1)",0.84,0.95,0.48,1.09,inactive
LOC399919 (retired record),-0.53,-0.56,-0.45,-0.56,inactive
LOC400571 (retired record),-0.22,-0.08,-0.34,-0.25,inactive
HSP90AA2P,0.17,0.4,0.03,0.1,inactive
LAIR2 (leukocyte associated immunoglobulin like receptor 2),-0.69,-0.62,-0.74,-0.7,inactive
"LOC100133284 (striatin, calmodulin binding protein pseudogene)",2.35,2.21,1.85,2.98,active
C2orf78 (chromosome 2 open reading frame 78),0.01,-0.13,0.5,-0.34,inactive
ZNF69 (zinc finger protein 69),-0.43,-0.07,-0.54,-0.69,inactive
BAG3 (BAG cochaperone 3),-0.83,-1.52,-0.29,-0.68,inactive
"PFKP (phosphofructokinase, platelet)",-0.54,-0.68,-0.26,-0.69,inactive
ARPC5 (actin related protein 2/3 complex subunit 5),0.68,0.65,0.94,0.45,inactive
LINC00410 (long independently transcribed non-coding RNA 410),1.99,2.75,1.64,1.58,inactive
PIK3CD,-1.42,-1.66,-1.4,-1.2,inactive
GPR31 (G protein-coupled receptor 31),-0.43,-0.18,-0.71,-0.4,inactive
USP30 (ubiquitin specific peptidase 30),0.19,0.26,0.18,0.14,inactive
MINAR1 (membrane integral NOTCH2 associated receptor 1),-0.39,-0.5,-0.39,-0.27,inactive
CYC1 (cytochrome c1),-1,-0.98,-1.08,-0.96,inactive
RPL23AP43 (ribosomal protein L23a pseudogene 43),0.17,0.31,-0.12,0.32,inactive
GUK1 (guanylate kinase 1),-0.68,-0.95,-0.65,-0.43,inactive
SPMAP1 (sperm microtubule associated protein 1),-0.38,-0.27,-0.31,-0.54,inactive
CAPN9 (calpain 9),-0.27,-0.19,-0.29,-0.35,inactive
UBXN10 (UBX domain protein 10),1.75,2.02,1.72,1.51,inactive
EPHA7 (EPH receptor A7),0.09,0.44,0.2,-0.37,inactive
LOC652276,0.07,0.08,0.2,-0.06,inactive
AFF1 (ALF transcription elongation factor 1),1.24,1.19,1.18,1.36,inactive
LINC02902 (long independently transcribed non-coding RNA 2902),0.59,0.67,0.67,0.42,inactive
PLAAT2 (phospholipase A and acyltransferase 2),1.52,1.44,2.05,1.06,inactive
